From patent publication US20050239873A1, “2 Methoxy antimycin a derivatives and methods of use” (priority 1999, published 2005)

Tested on: TABX2S cells (over-expressing Bcl-xL)
Conditions: estimated from the dose-response curve
Text: Briefly, a DNA fragment encoding the full-length mouse BCl-xL cDNA was isolated from the plasmid PBS.BCL-xL (Tzung et al., Am. J. Path. 150:1985-1995, 1997, incorporated herein by reference in its entirety) by digestion with the restriction endonuclease EcoRI. This EcoRI fragment was cloned into the EcoRI site of the mammalian expression vector pSFFV (Fuhlbrigge et al., Proc. Nat. Acad. Sci. USA 85:5649-5653, 1988) in both sense and antisense orientations, to form expression plasmids pSFFV.Bcl-xL(sense) or pSFFV.Bcl-xL(antisense), respectively. […]
Selected transfectants were then tested for whole cell sensitivity to several apoptotic agents. […] Cell viability was determined by trypan blue dye exclusion. The percentage of viable cells was calculated by the number of viable cells (treated with a particular apoptogenic agent) divided by the number in the control group (untreated).
TABX2S cells and TABX1A cells were also examined for the effects of various mitochondrial inhibitors. […] At various time points after drug treatment, cells were trypsinized, and cell viability was determined by trypan blue dye exclusion. The number of viable cells were counted and normalized to control group (i.e., % control=number of viable cells (treated group)/number of viable cells (control group)×100).

antimycin A was tested, and the LD50 was 1.2 µM.
